The values that follow come from paper PMC7145534, “Are the intrinsically disordered linkers involved in SSB binding to accessory proteins?” (Nucleic Acids Research, 2019).

For the data set, the system named is χ. In words: Sedimentation velocity, effect of P15 on χ. The class given is binding, Escherichia coli.

For “P15: SSB-Ct peptide, C-terminal 15 amino acids of E. coli SSB, contains acidic tip, no PXXP motifs (PSNEPPMDFDDDIPF)”, the “assembly state of χ” value (30-fold excess P15) was “monomeric before and after P15 binding”. The “sedimentation coefficient s20,w of χ with peptide” value (30-fold excess P15, BTP pH 8.0, 50 mM NaCl, χ alone 1.76 S) stood at 1.80 S.
